Sequence variants of PSTVd loop 15 after infection

Data from the supplement of Wu et al. 2024, doi:10.1371/journal.ppat.1012142.

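Three N. benthamiana plants were inoculated with the whole mutant pool. Progeny were sequenced from the inoculated region (day 5), the margin of the inoculated leaf (day 10) and systemic leaves (day 12).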

PSTVd intermediate strain, loop 15: wild type GGAAACCGCUACUAC, pool pattern GGAAACCGNNNNNNC; upper and lower strand joined, each 5' to 3', the first 7 letters being the upper strand, closing pairs included.

Numbers give reads per thousand; 0 = not seen among the reads, higher = more abundant.
Each site shows the three plants.
"Pool" is the share in the plasmid pool used as inoculum, on the same scale.
The inoculated region was read from the minus strand, the other sites from the plus strand.
For reference, wild type rose from 33.9 per thousand in the pool to 202, 200, 159 (inoculated region), 724, 746, 710 (leaf margin) and 856, 883, 880 (systemic leaves).
Samples held 43,870 to 66,106 reads, so the smallest values rest on one or two reads.
Sequences that differ at fixed positions probably stem from PCR or sequencing errors, and defective variants can be carried along by functional ones.

sequence	pool	inoculated region	leaf margin	systemic leaves
GGAAACCGAAAUGUC	0.192	0.0983 / 0.193 / 0.114	0 / 0.0223 / 0.0200	0.0161 / 0 / 0.0228
GGAAACCGAACACCC	0.272	0.0819 / 0.0482 / 0.114	0 / 0 / 0	0 / 0 / 0
GGAAACCGAAGUAGC	0.192	0.0491 / 0.177 / 0.0952	0.0162 / 0 / 0	0 / 0 / 0
GGAAACCGACCGUAC	0.176	0.164 / 0.273 / 0.343	0.129 / 0.0891 / 0.120	0.0322 / 0.0605 / 0.0684
GGAAACCGACGCGUC	0.208	0.0328 / 0.0803 / 0.133	0 / 0 / 0	0.0161 / 0 / 0
GGAAACCGAGCCGCC	0.112	0.0491 / 0.0803 / 0.0762	0.0162 / 0.0223 / 0.0401	0 / 0 / 0
GGAAACCGAGGCUCC	0.176	0.0983 / 0.0643 / 0.0762	0.0323 / 0 / 0	0 / 0 / 0
GGAAACCGAGGUACC	0.224	0.0983 / 0.0482 / 0.114	0 / 0 / 0.0200	0 / 0 / 0
GGAAACCGAUCGAUC	0.224	0.475 / 0.209 / 0.190	0 / 0 / 0	0 / 0 / 0
GGAAACCGAUCUUUC	0.304	0.409 / 0.337 / 0.324	0.129 / 0.0445 / 0.180	0.0161 / 0 / 0
GGAAACCGAUUUACC	0.208	0.0983 / 0.177 / 0.171	0.0485 / 0 / 0.0200	0 / 0.0303 / 0
GGAAACCGCACAUAC	0.288	0.311 / 0.257 / 0.514	0.113 / 0.178 / 0.0401	0.0161 / 0.0303 / 0.0684
GGAAACCGCAGCACC	0.256	0.0491 / 0.0482 / 0.114	0 / 0.0223 / 0	0 / 0 / 0
GGAAACCGCCACCAC	0.160	0.262 / 0.257 / 0.438	0.0970 / 0.134 / 0.160	0.0483 / 0.0151 / 0.114
GGAAACCGCCAGUCC	0.176	0.360 / 0.321 / 0.533	0.0808 / 0.134 / 0.200	0 / 0.0605 / 0.0684
GGAAACCGCCCAAAC	0.384	0.295 / 0.434 / 0.343	0.113 / 0.0668 / 0.140	0.0483 / 0 / 0
GGAAACCGCCUGGCC	0.176	0.131 / 0.0161 / 0.0762	0.0162 / 0 / 0.0200	0 / 0 / 0
GGAAACCGCGAUUGC	0.272	0.344 / 0.241 / 0.514	0.146 / 0.134 / 0.160	0.0644 / 0.0908 / 0.0684
GGAAACCGCGCGUGC	0.224	0.278 / 0.321 / 0.400	0.210 / 0.0445 / 0.0801	0.0322 / 0.136 / 0.0912
GGAAACCGCGUAAUC	0.272	0.0328 / 0.0482 / 0.152	0 / 0 / 0	0 / 0 / 0
GGAAACCGCGUACCC	0.336	0.131 / 0.0803 / 0.114	0.0323 / 0 / 0.0200	0 / 0 / 0
GGAAACCGCGUUAUC	0.208	0.180 / 0.193 / 0.114	0 / 0 / 0.0401	0 / 0 / 0
GGAAACCGCGUUCCC	0.224	0.0819 / 0.0964 / 0.0571	0.0323 / 0 / 0	0 / 0 / 0
GGAAACCGCUGGAGC	0.272	0.147 / 0.0964 / 0.171	0 / 0.0223 / 0	0 / 0 / 0
GGAAACCGCUGUCGC	0.288	0.0655 / 0.0643 / 0.0571	0 / 0.0223 / 0.0200	0 / 0 / 0
GGAAACCGCUUGACC	0.320	0.0164 / 0.129 / 0.0571	0 / 0 / 0	0 / 0 / 0
GGAAACCGGAACAAC	0.224	0.262 / 0.0964 / 0.133	0.0162 / 0 / 0	0 / 0 / 0
GGAAACCGGAUAAGC	0.272	0.164 / 0.112 / 0.152	0 / 0.0223 / 0	0 / 0 / 0
GGAAACCGGAUGUCC	0.384	0.0819 / 0.0964 / 0.133	0 / 0 / 0	0.0161 / 0 / 0.0228
GGAAACCGGCACAAC	0.208	0.115 / 0.0964 / 0.0571	0 / 0 / 0.0200	0.0483 / 0 / 0
GGAAACCGGCCAUGC	0.192	0.0164 / 0.177 / 0.209	0 / 0.0223 / 0	0.0161 / 0 / 0
GGAAACCGGCGGUAC	0.160	0.229 / 0.225 / 0.476	0.162 / 0.0668 / 0.140	0.0161 / 0.0151 / 0.0684
GGAAACCGGCUCGAC	0.256	0.0491 / 0.112 / 0.0952	0.0323 / 0 / 0	0 / 0 / 0
GGAAACCGGCUGGGC	0.240	0.0164 / 0.225 / 0.114	0.0162 / 0.0445 / 0.0200	0 / 0 / 0
GGAAACCGGGAUUUC	0.176	0.442 / 0.337 / 0.343	0.0808 / 0.0668 / 0.160	0.0483 / 0 / 0
GGAAACCGGGGCCGC	0.192	0.0983 / 0.112 / 0.0571	0.0485 / 0 / 0	0 / 0 / 0
GGAAACCGGGGCGGC	0.288	0.0819 / 0.112 / 0.0952	0.0323 / 0.0223 / 0.0601	0 / 0 / 0
GGAAACCGGGUCAUC	0.256	0.0819 / 0.129 / 0.228	0 / 0.0223 / 0.0401	0.0161 / 0 / 0
GGAAACCGGUGUUUC	0.192	0.0491 / 0.112 / 0.0952	0 / 0.0223 / 0.0200	0.0161 / 0 / 0
GGAAACCGUAACUUC	0.224	0.753 / 0.739 / 0.590	0.194 / 0.156 / 0.140	0.0644 / 0.106 / 0.205
GGAAACCGUACAUUC	0.224	0.278 / 0.225 / 0.324	0.113 / 1.83 / 0.120	0.0322 / 0 / 0
GGAAACCGUAUCAUC	0.160	0.0164 / 0.0803 / 0.114	0 / 0 / 0.0200	0 / 0 / 0
GGAAACCGUCACGUC	0.240	0.180 / 0.145 / 0.171	0.0162 / 0 / 0.0401	0 / 0 / 0
GGAAACCGUCAUCCC	0.240	0.0819 / 0.112 / 0.114	0 / 0 / 0.0200	0 / 0 / 0
GGAAACCGUCCAACC	0.224	0.164 / 0.0964 / 0.152	0 / 0.0445 / 0	0 / 0 / 0
GGAAACCGUCGCCGC	0.256	0.0655 / 0.112 / 0.133	0.0162 / 0 / 0.0200	0 / 0 / 0
GGAAACCGUGCUCAC	0.256	0.164 / 0.129 / 0.114	0.0162 / 0 / 0.0200	0.0483 / 0 / 0
GGAAACCGUGGGAAC	0.192	0.115 / 0.0643 / 0.0952	0 / 0 / 0.0801	0 / 0 / 0
GGAAACCGUGUGGCC	0.160	0.0819 / 0.0482 / 0.0571	0 / 0 / 0.0401	0 / 0 / 0
GGAAACCGUUUUAAC	0.192	0.131 / 0.0161 / 0.0952	0 / 0 / 0	0 / 0 / 0